Compound potency records, mixed from different reports. Data source: NIAID ChemDB in PubChem.

All rows: toxicity to cultured cells; cell line: MDCK; read-out: CC50

a–b is a range or a potency band. CCn is the concentration with n% toxicity to the cells. Rows are shuffled and stem from different studies.

SMILES | value
O=C(N[C@@H]1CCC23CCC2N(Cc2ccccc2)C3C1)c1cc(Cl)ccc1O | 100 µg/mL
CC(=O)N[C@H]1[C@H]([C@H](OC(=O)NCCCCCCNC(=O)CCC(NC(=O)C(F)(F)F)C(=O)NCC(=O)NCCCCCCNC(=O)O[C@@H]([C@@H]2OC(C(=O)O)=C[C@H](N=C(N)N)[C@H]2NC(C)=O)[C@H](O)CO)[C@H](O)CO)OC(C(=O)O)=C[C@@H]1N=C(N)N | >1 µg/mL
O=C(/C=C/c1ccc(O)c(O)c1)O[C@@H]1CC(O)(C(=O)O)C[C@@H](OC(=O)/C=C/c2ccc(O)c(O)c2)C1O | >400 µM
C/C1=C\C=C\C2(C)C=C(CO)C(C)CC23OC([O-])C(C3=O)C(O)/C=C/C2(C)C=C(CO)C(C)CC23OC([O-])C(C3=O)C(O)/C(C)=C/C=C/C2C=C(CO)C(C)CC23OC([O-])C(C3=O)C(O)/C=C/C2(C)C=C(CO)C(C)CC23OC([O-])C(C3=O)C1O | >100 µg/mL
CC(=O)N[C@H]1[C@H]([C@H](O)[C@H](O)CO)OC(C(=O)O)=C[C@@H]1N=C(N)N | >1000 µM
Cc1ccc(O)c(C(=O)NCCCN2[C@H](C)CC[C@@H]3CCCC[C@@H]32)c1 | 90 µg/mL
CC1(C)C[C@@H](O)C[C@](C)(CNC(=S)c2cccc([N+](=O)[O-])c2)C1 | 15 µg/mL
CCCOc1ncn(-c2ccc(NC(=S)Nc3cccc(O)c3)cc2)n1 | 100 µg/mL
Cc1ccc(O)c(C(=O)N[C@H]2CCC34CCC3N(C(C)C)C4C2)c1 | 100 µg/mL
CC1(C)C[C@@H](O)C[C@](C)(CNC(=S)c2ccccc2)C1 | 10 µg/mL
CC(C)CS[C@@H]1C[C@H](n2cnc3c(N)ncnc32)[C@@H](O)[C@H]1O | >200 µg/mL
CCC(CC)(CO)CNc1cc(Cl)nc(N)n1 | 220 µM
CC1(C)CC[C@]2(C(=O)OC3O[C@H](CO)[C@@H](O)[C@H](O)[C@H]3O)CC[C@]3(C)C(=CCC4[C@@]5(C)CCC(O[C@@H]6O[C@H](C(=O)O)[C@@H](O)[C@H](O)[C@H]6O)C(C)(C)C5CC[C@]43C)[C@H]2C1 | 580 µM
C/C(=C\CCC1(C)C=Cc2cc(O)cc(C)c2O1)CC/C=C(\C)CC[C@@H](C)C(C)(C)O | 24 µM
C/C1=C\C=C\C2(C)C=C(CO[C@H]3O[C@H](CO)[C@H](O)[C@H](O)[C@H]3O)C(C)CC23OC([O-])C(C3=O)C(O)/C=C/C2(C)C=C(CO)C(C)CC23OC([O-])C(C3=O)C(O)/C(C)=C/C=C/C2C=C(CO[C@H]3O[C@H](CO)[C@H](O)[C@H](O)[C@H]3O)C(C)CC23OC([O-])C(C3=O)C(O)/C=C/C2(C)C=C(C=O)C(C)CC23OC([O-])C(C3=O)C1O | >100 µg/mL
N#Cc1cc(CC(=O)c2ccccc2)c(=O)n2c1sc1ccccc12 | 200 µg/mL
Nc1nc(Cl)cc(NCC2(CO)CC(O)C2)n1 | >120 µM
Cc1ccc(C(=S)NC[C@@]2(C)C[C@H](O)CC(C)(C)C2)cc1 | 40 µg/mL
C/C1=C\C=C\C2(C)C=C(CO)C(C)CC23OC([O-])C(C3=O)C(O)/C=C/C2(C)C=C(CO)C(C)CC23OC([O-])C(C3=O)C(O)/C(C)=C/C=C/C2C=C(CO)C(C)CC23OC([O-])C(C3=O)C(O)/C=C/C2(C)C=C(C=O)C(C)CC23OC([O-])C(C3=O)C1O | 68 µg/mL
CCCOc1ncn(-c2ccc(NC(=S)Nc3ncccn3)cc2)n1 | 100 µg/mL
O=C(N[C@H]1CCC23CCC2N(Cc2ccccc2)C3C1)c1cc(Cl)ccc1O | 100 µg/mL
CC1(C)C[C@H](O)C[C@](C)(CNC(=S)c2ccccc2O)C1 | 40 µg/mL
Nc1nc(Cl)c(/C=N/O)c(NCC2(CO)CC(CCc3ccccc3)C2)n1 | 0.18–0.26 µM
Cc1ccc(O)c(C(=O)N[C@H]2CCC34CCC3N(Cc3ccccc3)C4C2)c1 | 100 µg/mL
[N-]=C=Nc1nncs1 | 0.3–1 µg/mL
Cc1ccc(C2NC(=O)C3NC(=O)C(c4cc(O)cc(O)c4)NC(=O)C(NC(=O)C(N)Cc4ccc(O)cc4)Cc4c[nH]c5cc(ccc45)-c4cc3cc(c4O)Oc3ccc(cc3)CC(C(=O)NC(C(=O)O)c3ccc(O)c(O)c3)NC2=O)cc1Cl | >200 µg/mL
CC1(C)C[C@@H](O)C[C@](C)(CNC(=S)c2cccc(C#N)c2)C1 | 22 µg/mL
COc1c(Cl)nc(N)nc1NCC1(CO)CC(CCc2ccccc2)C1 | 0.13–0.27 µM
CCCOc1ncn(-c2ccc(NC(=S)Nc3cnccn3)cc2)n1 | 100 µg/mL
N#Cc1cc(CC(=O)c2ccccc2)c(=O)n2c1oc1ccccc12 | 40 µg/mL
Nc1ncnc2c1ncn2[C@@H]1C[C@@H](O)[C@@H](O)[C@H]1O | >200 µg/mL
CC(=O)c1cc(CC(=O)c2ccccc2)c(=O)n2c1sc1ccccc12 | 40 µg/mL
CC#Cc1cn([C@@H]2O[C@H](COP(=O)(O)OCC(Cl)(Cl)Cl)[C@@H](O)[C@@H]2O)c(=O)[nH]c1=O | 185 µM
Nc1nc(Cl)cc(NCC2(CO)CC(CCc3ccccc3)C2)n1 | 0.81–0.92 µM
CCOc1ncn(-c2ccc(NC(=S)Nc3cccc(O)c3)cc2)n1 | >200 µg/mL
Cc1ccc(C(=S)NC[C@@]2(C)C[C@@H](O)CC(C)(C)C2)cc1 | 25 µg/mL
Nc1nc(Cl)cc(NCC2(CO)COC2)n1 | >410 µM
CCC(C)N1C2CCC23CC[C@@H](NC(=O)c2cc(Cl)ccc2O)CC13 | 100 µg/mL
CC#Cc1cn([C@@H]2O[C@H](COP(=O)(O)Oc3ccc(F)cc3)[C@@H](O)[C@@H]2O)c(=O)[nH]c1=O | >500 µM
CCOC(=O)c1cc(CC(=O)c2ccccc2)c(=O)n2c1sc1ccccc12 | 40 µg/mL
CC#Cc1cn([C@@H]2O[C@H](COP(=O)(N[C@H](C(=O)OC)C(C)C)Oc3ccccc3)[C@@H](O)[C@@H]2O)c(=O)[nH]c1=O | >500 µM
CCOc1ncn(-c2ccc(NC(=S)NC34CC5CC(CC(C5)C3)C4)cc2)n1 | >200 µg/mL
CC(C)N1C2CCC23CC[C@@H](NC(=O)c2cc(Cl)ccc2O)CC13 | 100 µg/mL
Nc1nc(Cl)cc(NCCC2(CO)CCC2)n1 | >120 µM
CC1(C)C[C@H](O)C[C@](C)(CNC(=S)c2cc(Cl)ccc2O)C1 | 5.5 µg/mL
COc1ccccc1CNC(=O)C1=Cc2ccncc2CC1 | 169 µM
CCOC(=O)c1cc(C#N)c2[nH]c3ccccc3n2c1=O | 176 µg/mL

Repeating the final 4 entries:

SMILES	value
Nc1nc(Cl)cc(NCCC2(CO)CCC2)n1	>120 µM
CC1(C)C[C@H](O)C[C@](C)(CNC(=S)c2cc(Cl)ccc2O)C1	5.5 µg/mL
COc1ccccc1CNC(=O)C1=Cc2ccncc2CC1	169 µM
CCOC(=O)c1cc(C#N)c2[nH]c3ccccc3n2c1=O	176 µg/mL